PubChem BioAssay AID624099 | ICCB-Longwood – 2012
Test: 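Human genes that papillomavirus E2 requires to repress the HPV18 LCR promoter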 (primary screen). System: human C33A cervical carcinoma cells (HPV-negative) stably expressing BPV1 E2 and an HPV18 LCR luciferase reporter. Reagents: siRNA pool against human genes, 40 nM. Timing: 72 h. Read-out: 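HPV18 LCR reporter light per well, converted to plate-wise z-scores that exclude control wells, and averaged over triplicate plates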. Direction: mean z-score and z-score: higher = stronger reporter signal, weaker E2 silencing. Active means: 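Mean z ≥ 2 together with z ≥ 2 in two or more of the three replicates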.
Here is one part, drawn at random, of about 21,000 reagents. Of all reagents, 497 (2.4%) were called active. 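Higher z means weaker E2 silencing; only reporter increases were scored, and knock-downs that hurt cell survival may mask genuine repressor factors.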

OMD [SID134323679]
- mean z-score: 0.79
- z-score, replicate A: 1.06
- z-score, replicate B: 0.65
- z-score, replicate C: 0.66
- Outcome: inactive

SCNN1D [SID134311830]
- mean z-score: 0.38
- z-score, replicate A: 0.28
- z-score, replicate B: 0.49
- z-score, replicate C: 0.38
- Outcome: inactive

CEP120 [SID134320483]
- mean z-score: -0.1
- z-score, replicate A: -0.23
- z-score, replicate B: -0.07
- z-score, replicate C: 0.02
- Outcome: inactive

MAN1C1 [SID134324127]
- mean z-score: -1.75
- z-score, replicate A: -1.68
- z-score, replicate B: -1.74
- z-score, replicate C: -1.83
- Outcome: inactive

ZC3HC1 [SID134320853]
- mean z-score: 0.44
- z-score, replicate A: 0.84
- z-score, replicate B: 0.24
- z-score, replicate C: 0.24
- Outcome: inactive

MSN [SID134316051]
- mean z-score: -0.63
- z-score, replicate A: -1.09
- z-score, replicate B: -0.29
- z-score, replicate C: -0.52
- Outcome: inactive

DYNC2H1 [SID134326564]
- mean z-score: -0.04
- z-score, replicate A: 0.2
- z-score, replicate B: -0.01
- z-score, replicate C: -0.32
- Outcome: inactive

The list goes on, starting with the last 2 of the part before.
MSN [SID134316051]
- mean z-score: -0.63
- z-score, replicate A: -1.09
- z-score, replicate B: -0.29
- z-score, replicate C: -0.52
- Outcome: inactive

DYNC2H1 [SID134326564]
- mean z-score: -0.04
- z-score, replicate A: 0.2
- z-score, replicate B: -0.01
- z-score, replicate C: -0.32
- Outcome: inactive

MCM6 [SID134309831]
- mean z-score: -0.09
- z-score, replicate A: 0.09
- z-score, replicate B: 0.08
- z-score, replicate C: -0.43
- Outcome: inactive

GRAMD1C [SID134324233]
- mean z-score: -0.47
- z-score, replicate A: -0.75
- z-score, replicate B: -0.43
- z-score, replicate C: -0.25
- Outcome: inactive

IFNA6 [SID134318331]
- mean z-score: -0.74
- z-score, replicate A: -0.61
- z-score, replicate B: -0.78
- z-score, replicate C: -0.82
- Outcome: inactive

ACSF3 [SID134321718]
- mean z-score: -1.54
- z-score, replicate A: -1.2
- z-score, replicate B: -1.71
- z-score, replicate C: -1.7
- Outcome: inactive

HCN3 [SID134325375]
- mean z-score: -0.45
- z-score, replicate A: -0.39
- z-score, replicate B: -0.42
- z-score, replicate C: -0.53
- Outcome: inactive
